The values that follow come from patent US20060275329A1 (Osaka Bioscience Institute, priority 2002, published 2006).

The assay has as its system recombinant TcOYE. Particulars: 500 μM NADPH or NADH, argon-bubbled 0.1 M phosphate buffer pH 7.0.

For `CCCCOOCCCC`, the “Reduction of the compound by TcOYE (substrate specificity)” value is “reduced”.
